PubChem BioAssay AID504761 | Drosophila RNAi Screening Center | 2011
In all, the deposit lists about 22,000 reagents; shown is a random part of those that have a named target and a result. In the full data, 116 (0.52%) are marked active. 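Calls depend on retest data that are not deposited; infection was ranked per plate without normalising between plates; the unit of the infection score is not given.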 Further read-outs or replicates are left out here. Reagent sequences are not shown. Not given: the amount of reagent, the time to read-out.

Aim: 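Insect host genes that dengue virus relies on to spread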 (primary screen)
Cells: D.Mel-2 cells from Drosophila
Knock-down reagent: long dsRNA against Drosophila genes
Treatment: infection with dengue virus type 2; dose and infection time not stated
Measured: 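Per well on two replicate plates, imaging gave the percent of cells positive for viral envelope protein, ranked by infection, and a nuclear count of cells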
Scale: infection score: higher = more virus-infected cells
Rule for the call: 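Very low infection ranking in both replicate wells (chance probability at most 0.065), then a retest showing infection dropped 1.5-fold or more at p below 0.05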
Calls: active = confirmed: knock-down lowers infection; inactive = not picked or not confirmed

With knock-down of CR42532 [DRSC06713], the screen gave infection score, replicate 1 = 5.95; inactive.
Against OXA1L [DRSC09672], the entry reads infection score, replicate 1 = 6.71; inactive.
Against OXA1L [DRSC29571], the values are infection score, replicate 1 = 13.8; inactive.
For Mrtf [DRSC08410], the values are infection score, replicate 1 = 2.88; inactive.
Mrtf [DRSC23194] scored infection score, replicate 1 = 0.46; inactive.
Silencing of Mrtf [DRSC30105] resulted in: infection score, replicate 1 = 2.34; inactive.
With knock-down of wuc [DRSC06152], the screen gave infection score, replicate 1 = 4.34; inactive.
For Ype [DRSC20301] the deposit lists infection score, replicate 1 = 6.53; inactive.
With knock-down of 14-3-3zeta [DRSC05028], the screen gave infection score, replicate 1 = 19.1; inactive.
Against 14-3-3zeta [DRSC27525] the deposit lists infection score, replicate 1 = 4.68; inactive.
lncRNA:CR32730 [DRSC22957] scored infection score, replicate 1 = 2.02; inactive.
After knock-down of mAcon1 [DRSC01853], the screen gave infection score, replicate 1 = 1.41; inactive.
Depletion of mAcon1 [DRSC24875] gave: infection score, replicate 1 = 14.4; inactive.
CG17207 [DRSC15198] gave infection score, replicate 1 = 4.29; inactive.
Depletion of Klf15 [DRSC17742] resulted in: infection score, replicate 1 = 1.19; inactive.
Against jus [DRSC23018] the deposit lists infection score, replicate 1 = 2.46; inactive.
With knock-down of jus [DRSC26804], the record shows infection score, replicate 1 = 10.8; inactive.
Knock-down of CG18745 [DRSC15382] came out at: infection score, replicate 1 = 5.15; inactive.
CG18745 [DRSC30088] scored infection score, replicate 1 = 13.8; inactive.
For E(var)3-9 [DRSC23242] the deposit lists infection score, replicate 1 = 5.32; inactive.
E(var)3-9 [DRSC29480] gave infection score, replicate 1 = 6.78; inactive.

2 successive entries from above, for reference:
Klf15 [DRSC17742] — infection score, replicate 1 = 1.19; outcome = inactive
jus [DRSC23018] — infection score, replicate 1 = 2.46; outcome = inactive
